# Reference: paper PMC4357719, “Roles of Rad51 paralogs for promoting homologous recombination in Leishmania infantum”
# For at least one entry, the source does not settle the construct or the ends of the probe.
# System: LiRad51-3 (in 3-4-6 complex) + LiRad51-4 (in 3-4-6 complex) + LiRad51-6 (in 3-4-6 complex)
# Test: competition EMSA
# Settings: 0-40 nM complex, mixture; 25 mM MOPS pH 7.0, 0.2% Tween-20, 1 mM CaCl2, 2 mM DTT; 25 nM 32P-DNA; 37 C 10 min, then 0.2% glutaraldehyde 15 min; 8% TBE acrylamide gel; recombinant protein; label: 32P; single-stranded DNA
sequence,measurement,value
"GGGTGAACCTGCAGGTGGGCAAAGATGTCCTAGCAATGTAATCGTCAAGCTTTATGCCGT [ssDNA of structure competition (JYM925, inferred)]",binding result,binds
